Experiments:
[1] = tested on: Vero E6/TMPRSS2; experiment: Vero E6/TMPRSS2 cytotoxicity with P-gp inhibitor; type: cell-based
[2] = tested on: MERS-CoV; experiment: Vero E6/TMPRSS2 MERS-CoV antiviral effect with P-gp inhibitor; type: cell-based

Compound: CC(C)[C@H](Nc1ncnc2[nH]ccc12)c1ccc2c(c1)S(=O)(=O)CCC2 [ASAP-0008674]
- cc10 [1]: > 20.0 µM
- EC90 [2]: > 20 µM

— doi:10.1101/2024.08.19.608619, “Discovery of potent SARS-CoV-2 nsp3 macrodomain inhibitors uncovers lack of translation to cellular antiviral response” (bioRxiv, 2024)
